PubChem BioAssay AID1259414, Drosophila RNAi Screening Center | 2018

Purpose: 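Fly genes that alter Wolbachia amount inside host cells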 (primary screen)
Cells: Drosophila JW18 cells infected with Wolbachia
Reagents: long dsRNA against Drosophila genes, 0.25 µg dsRNA per well of a 384-well plate
Time to read-out: 5 days
Conditions: cells persistently infected with Wolbachia before knock-down; no added drug
Detection: 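Automated imaging of bacterial rRNA staining divided by host cell count, reported as plate-normalised robust z-score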
Direction: Wolbachia per cell robust z: higher = more Wolbachia per host cell than the plate typical
Active means: 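Hit when robust z is 1.5 or more, or -1.5 or less, in at least two of three replicates; excludes dsRNAs with several or no targets, genes not expressed in JW18 and well A1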
In all, the deposit lists about 24,000 reagents; this is a random part of those with a known target gene and a result. Over the whole deposit, about 1,210 (5%) are marked active. 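Inactive calls also include excluded dsRNAs with several or no targets, genes unexpressed in JW18, and well A1, regardless of score.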 Names joined by + are all predicted targets of the reagent. Reagent sequences are not shown.

no.	predicted target	dsRNA	Wolbachia per cell robust z, rep 1	Wolbachia per cell robust z, rep 2	Wolbachia per cell robust z, rep 3	call
1	Kaz (Katazuke)	DRSC14637	-0.508	-2	-4.44	active
2	Vha68-3 (Vacuolar H[+] ATPase 68kD subunit 3)	DRSC02809	-0.276	-3.36	-0.185	inactive
3	Vha68-3 (Vacuolar H[+] ATPase 68kD subunit 3)	DRSC25742	-8.88	-0.574	-0.242	inactive
4	CG5561	DRSC00688	-0.435	0.571	-0.464	inactive
5	Dnaaf6 (Dynein axonemal assembly factor 6)	DRSC10473	-0.588	0.548	-1.08	inactive
6	Nup214 (Nucleoporin 214kD)	DRSC04421	0.803	-1.11	0.282	inactive
7	Dok (Downstream of kinase)	DRSC18204	0.762	1.2	0.657	inactive
8	Dok (Downstream of kinase)	DRSC23455	0.342	0.164	0.171	inactive
9	CG42497 + Tim10	DRSC04664	0.823	0.627	-0.571	inactive
10	CG34461	DRSC10767	-0.458	-0.928	0.261	inactive
11	CG4194	DRSC18520	1.23	-7.76	-5.67	active
12	CG43342	DRSC13561	-1.22	-2.08	-1.23	inactive
13	CG32795	DRSC18609	-2.76	-0.0673	-2.86	active
14	CG32795	DRSC18610	0.383	0.221	0.46	inactive
15	Sec8 (Secretory 8)	DRSC12300	-0.169	0.641	1.04	inactive
16	CG31528	DRSC12003	0.187	-0.643	-0.405	inactive
17	CG32107	DRSC09221	0.0833	0.0188	0.798	inactive
18	CG13454	DRSC10001	0.467	-0.48	-0.5	inactive
19	CG8841	DRSC07286	-1.96	0.974	-1.34	inactive
20	cert (ceramide transfer protein)	DRSC09674	1.18	0.27	0.263	inactive
21	CG9864	DRSC07346	-1.04	0.646	-0.0434	inactive
22	CG9864	DRSC28765	-0.15	0.331	0.246	inactive
23	CG30259	DRSC04164	-0.531	-0.192	-3.83	inactive
24	CG30259	DRSC04165	0.0486	-0.545	0.963	inactive
25	Spn77Ba (Serpin 77Ba)	DRSC10693	-1.08	0.697	-0.225	inactive
26	Mst57Da (Male-specific RNA 57Da)	DRSC16744	-2.23	1.08	-0.691	inactive
27	VhaSFD (Vacuolar H[+]-ATPase SFD subunit)	DRSC03471	1.1	0.87	1.29	inactive
28	CG34444	DRSC06435	0.0634	-0.751	-2.28	inactive
29	CG34444	DRSC41475	1.07	0.00349	-0.771	inactive

Reagents listed above marked active (3):
predicted target	dsRNA	Wolbachia per cell robust z, rep 1	Wolbachia per cell robust z, rep 2	Wolbachia per cell robust z, rep 3	call
Kaz (Katazuke)	DRSC14637	-0.508	-2	-4.44	active
CG4194	DRSC18520	1.23	-7.76	-5.67	active
CG32795	DRSC18609	-2.76	-0.0673	-2.86	active
